# According to paper PMC5762688, “Recognition by host nuclear transport proteins drives disorder-to-order transition in Hendra virus V” (2018):
# Target: Importin α2/β1 heterodimer (mouse), tagless recombinant, preformed, mouse, P52293 1-529; P70168 1-876
# Assay: circular dichroism
substance,measurement,value
"Hendra virus V protein L174A/L177A, tagless recombinant",result,binds
